A mixed list of measured activities; the numbers were collected in NIAID ChemDB.

All rows: growth or infection tests; species: Mycobacterium smegmatis

ECn: concentration that inhibits the pathogen or its effect by n%. a–b is a range or a potency band. Conditions beyond the fields shown may differ between rows. A number after MIC or MFC names an inhibition level or a share of isolates.

{"structure": "CCCCCc1[nH]c2ccccc2c1C1=C(Br)C(=O)NC1=O", "strain or isolate": "SG987", "endpoint": "MIC", "value": "0.56 µg/mL"}
{"structure": "CCCCCCCCN(CCCCCCCC)C(=O)NC(CCC(=O)O)(CCC(=O)O)CCC(=O)O", "strain or isolate": "mc155", "endpoint": "MIC", "value": "54 µg/mL"}
{"structure": "CCC1CN(c2c(F)cc3c(=O)c(C(=O)O)cn(C4CC4)c3c2OC)CCN1", "strain or isolate": "A91V mutant", "endpoint": "MIC99", "value": "0.25 µg/mL"}
{"structure": "C[C@](N)(CO)C(=O)Nc1ccc(Nc2ccn(CCCCN3CCC(N)CC3)c(=O)n2)nc1", "read by": "turbidity", "endpoint": "MIC", "value": "8–32 µg/mL"}
{"structure": "CCCCCCCc1[nH]c2ccccc2c1C1=C(Br)C(=O)NC1=O", "strain or isolate": "SG987", "endpoint": "MIC", "value": "0.3 µg/mL"}
{"structure": "CCCCCCCC(CCCCCCC)OC(=O)NC(CCC(=O)O)(CCC(=O)O)CCC(=O)O", "strain or isolate": "mc155", "endpoint": "MIC", "value": "105 µg/mL"}
{"structure": "CCc1[nH]c2ccccc2c1C1=C(Br)C(=O)N(C)C1=O", "strain or isolate": "SG987", "endpoint": "MIC", "value": "50 µg/mL"}
{"structure": "CCC1CN(c2cc3c(cc2F)c(=O)c(C(=O)O)cn3C2CC2)CCN1", "strain or isolate": "A91V mutant", "endpoint": "MIC99", "value": "0.5 µg/mL"}
{"structure": "CCCCCCCCCCN(CCCCCCCCCC)C(=O)NC(CCC(=O)O)(CCC(=O)O)CCC(=O)O", "strain or isolate": "mc155", "endpoint": "MIC", "value": "54 µg/mL"}
{"structure": "COc1c(N2C[C@@H]3CCCN[C@@H]3C2)c(F)cc2c(=O)[nH]c(=O)n(C3CC3)c12", "strain or isolate": "WT", "endpoint": "MIC99", "value": "100 µg/mL"}
{"structure": "CCCCCCCCCCCN(CCCCCCCCCCC)C(=O)NC(CCC(=O)O)(CCC(=O)O)CCC(=O)O", "strain or isolate": "mc155", "endpoint": "MIC", "value": "72 µg/mL"}
{"structure": "CCC(C)NCCNC(C)C", "strain or isolate": "ATCC 607", "endpoint": "EC50", "value": "<30 µg/mL"}
{"structure": "NNC(=O)c1ccncc1", "strain or isolate": "MC^2 846", "endpoint": "MIC", "value": "60 µg/mL"}
{"structure": "CCCc1[nH]c2ccccc2c1C1=C(Br)C(=O)N(C)C1=O", "strain or isolate": "SG987", "endpoint": "MIC", "value": "25 µg/mL"}
{"structure": "CCCCCCCCCCCCNCCNCCCCCCCCCCCC", "strain or isolate": "ATCC 607", "endpoint": "EC50", "value": ">250 µg/mL"}
{"structure": "Cc1ccccc1NC(=O)CCCCCc1[nH]c2ccccc2c1C1=C(Br)C(=O)NC1=O", "strain or isolate": "SG987", "endpoint": "MIC", "value": "12.5 µg/mL"}
{"structure": "NC1CCN(CCCCn2ccc(Nc3ccc(COC[C@@H]4CCCN4)cn3)nc2=O)CC1", "read by": "turbidity", "endpoint": "MIC", "value": "8–32 µg/mL"}
{"structure": "COc1c(N2CC[C@@H](CN)C2)c(F)cc2c(=O)c(C(=O)O)cn(C3CC3)c12", "strain or isolate": "WT", "endpoint": "MIC99", "value": "0.062 µg/mL"}
{"structure": "CC(C)NCC(C)NC(C)C", "strain or isolate": "ATCC 607", "endpoint": "EC50", "value": "<250 µg/mL"}
{"structure": "Cc1c(N2CC[C@@H](CN)C2)c(F)cc2c(=O)n(N)c(=O)n(C3CC3)c12", "strain or isolate": "A91V mutant", "endpoint": "MIC99", "value": "0.625 µg/mL"}
{"structure": "NC1CCN(CCCCn2ccc(Nc3ccc(CNC[C@@H](N)CO)cn3)nc2=O)CC1", "read by": "turbidity", "endpoint": "MIC", "value": "<8 µg/mL"}
{"structure": "COc1cccc(-c2[nH]c3ccccc3c2C2=C(Br)C(=O)NC2=O)c1", "strain or isolate": "SG987", "endpoint": "MIC", "value": "3.125 µg/mL"}
{"structure": "NCCCNC(=O)c1ccc(Nc2ccn(CCCCN3CCC(N)CC3)c(=O)n2)nc1", "read by": "turbidity", "endpoint": "MIC", "value": "<8 µg/mL"}
{"structure": "COc1c(N2CC[C@H](N)C2)c(F)cc2c(=O)[nH]c(=O)n(C3CC3)c12", "strain or isolate": "WT", "endpoint": "MIC99", "value": "50 µg/mL"}
{"structure": "CCC(C)(C)NCCNC(C)(C)CC", "strain or isolate": "ATCC 607", "endpoint": "EC50", "value": ">250 µg/mL"}
{"structure": "NC1CCN(CCCCn2ccc(Nc3cc(COCCCNC4CC4)ccn3)nc2=O)CC1", "read by": "turbidity", "endpoint": "MIC", "value": "<8 µg/mL"}
{"structure": "CCC1CN(c2c(F)cc3c(=O)[nH]c(=O)n(C4CC4)c3c2OC)CCN1", "strain or isolate": "D95Y mutant", "endpoint": "MIC99", "value": "200 µg/mL"}

Repeating the final 4 entries:

COc1c(N2CC[C@H](N)C2)c(F)cc2c(=O)[nH]c(=O)n(C3CC3)c12 ; strain or isolate: WT ; endpoint: MIC99 ; value: 50 µg/mL
CCC(C)(C)NCCNC(C)(C)CC ; strain or isolate: ATCC 607 ; endpoint: EC50 ; value: >250 µg/mL
NC1CCN(CCCCn2ccc(Nc3cc(COCCCNC4CC4)ccn3)nc2=O)CC1 ; read by: turbidity ; endpoint: MIC ; value: <8 µg/mL
CCC1CN(c2c(F)cc3c(=O)[nH]c(=O)n(C4CC4)c3c2OC)CCN1 ; strain or isolate: D95Y mutant ; endpoint: MIC99 ; value: 200 µg/mL